In patent US20230401449A1, “MEANS AND METHODS FOR CLASSIFYING MICROBES” (UNIVERSITÉ DE LAUSANNE, priority 2020, published 2023):

Test system: Lake Geneva microbial community
Assay: 14C-labeled substrate incorporation, biomass yield of lake water community
Format: cell-based
Conditions: 3 days incubation

CCCCCCCCO [1-Octanol, 1-octanol]
14C based biomass yield (substrate 0.1 mg/l as sole carbon source): 0.469 ± 0.168 g/g
14C based biomass yield (substrate 1.0 mg/l as sole carbon source): 0.396 ± 0.024 g/g
14C based biomass yield (substrate 10 mg/l as sole carbon source): 0.233 ± 0.028 g/g
